Pooled drug test results. Numbers come from NIAID ChemDB, via PubChem.

All rows: whole-cell or culture tests; species: HIV-1; method: cytopathic effect; measure: EC50

Blank or dashed fields: not listed here.

| smiles | cells | mutations | setting | strain | result |
|---|---|---|---|---|---|
| Cc1cn([C@H]2C[C@H](F)[C@@H](CO)O2)c(=O)[nH]c1=S | MT-4 |  |  | IIIB | 1 µM |
| Cc1ccc(NC(=O)NCCSCc2ccc(CNC(C)C)o2)cc1Cl | MAGI |  |  |  | <100 µM |
| Cc1c(C(=O)O)cccc1-c1ccc(/C=C2\SC(=S)N(c3cccc(C(F)(F)F)c3)C2=O)o1 | MT-2 |  |  | IIIB | 1.571 µM |
| Cc1ccnc(N2C(=O)CSC2c2c(F)cccc2F)n1 | MT-4 |  |  | IIIB | 0.39 µM |
| Cc1ccc2c(c1)c1ccc(C)cc1c1ccc(CCCCCN3C(=O)CCC3=O)cc21 | MT-4 |  |  | IIIB | 30 µM |
| COc1cc2c(c(OC)c1O)-c1c(cc3c(c1OC)OCO3)C[C@H](C)[C@H](C)[C@@H]2O | C8166 |  |  |  | 7.15 µg/mL |
| Cc1ccc(OCCOCn2c(C)cc(=O)[nH]c2=O)cc1 | CEM + CEM-SS |  |  |  | >100 µM |
| Nc1nc2c(ncn2C2CC(CO)(CO)C2)c(=O)[nH]1 | MT-2 |  |  | IIIB | >200 µM |
| CCn1nc(-c2ccc(Cn3ccc4ccccc43)cc2)nc1C | MT-4 |  |  | IIIB | >0.48 µg/mL |
| Nc1nc2c(ncn2[C@H]2C=C[C@@H](CO)C2)c(=O)[nH]1 | MT-4 |  |  |  | 0.31 µg/mL |
| CC(C)CCC[C@@H](C)[C@H]1CC[C@H]2[C@]3(C)CC[C@H]4C[C@@H](CC=C(c5cc(Cl)c(O)c(C(=O)O)c5)c5cc(Cl)c(O)c(C(=O)O)c5)CC[C@]4(C)[C@H]3CC[C@@]21C | CEM + CEM-SS |  |  | RF | 25 µM |
| Cc1cn([C@H]2C=C[C@@H](CP(=O)(O)O)O2)c(=O)[nH]c1=O | MT-4 |  |  | IIIB | >128 µg/mL |
| CC1(C)[C@@H](O[C@H]2O[C@H](C(=O)O)[C@@H](O)[C@H](O)[C@H]2O[C@@H]2O[C@H](C(=O)O)[C@@H](O)[C@H](O)[C@H]2O)CC[C@]2(C)[C@H]3C(=O)C=C4[C@@H]5C[C@@](C)(C(=O)O)CC[C@]5(C)CC[C@@]4(C)[C@]3(C)CC[C@@H]12 | MT-4 |  |  | IIIB | >60 µM |
| Cc1cnc(=O)n([C@H]2C[C@H](F)[C@@H](CO)O2)c1 | MT-4 |  |  | IIIB | 7 µM |
| CC(C)(C)C(=O)SCCOP(=O)(CO[C@@H]1C=C[C@H](n2cnc3c(N)ncnc32)C1(F)F)OCCSC(=O)C(C)(C)C | MT-4 |  |  |  | 10.8 µM |
| CC1(CO)CCC(Cn2cnc3c(=O)[nH]c(N)nc32)C1(C)C | CEM |  |  |  | >100 µg/mL |
| Cc1ccc(OCCOCn2c(C)c(Br)c(=O)[nH]c2=O)cc1 | CEM + CEM-SS |  |  |  | 7.8 µM |
| Nc1nc(N)c2ncn([C@H]3CO[C@@H](CO)C3)c2n1 | ATH8 |  |  | IIIB | >100 µM |
| CC(C)CCC[C@@H](C)[C@H]1CC[C@H]2[C@@H]3C[C@@H](CCC=C(c4cc(Cl)c(O)c(C(=O)O)c4)c4cc(Cl)c(O)c(C(=O)O)c4)[C@H]4CCCC[C@]4(C)[C@H]3CC[C@]12C | CEM + CEM-SS |  |  | RF | 19 µM |
| CSc1ncnc2c1ncn2[C@H]1CO[C@@H](CO)C1 | ATH8 |  |  | IIIB | >100 µM |
| CC(CC(F)(OC(F)(F)C(F)(F)C(F)(F)F)C(F)(F)F)(C(=O)OCCOP(=O)([O-])O)C(F)(OC(F)(F)C(F)(F)C(F)(F)F)C(F)(F)F.[NH3+]CCO | MT-4 |  |  |  | 35 µg/mL |
| COc1cccc(F)c1C1SCC(=O)N1c1cccc(C)n1 | MT-4 |  |  | IIIB | 0.288 µM |
| CCOP(=O)(CO[C@@H]1C=C[C@H](n2cnc3c(N)ncnc32)C1(F)F)OCC | MT-4 |  |  |  | 87.8 µM |
| C=C1CN(S(=O)(=O)c2ccc(C)cc2)CCCN(Cc2ccccc2)CCCN(S(=O)(=O)c2ccc(C)cc2)C1 | SupT1 |  |  | NL4-3 | 3.2 µM |
| CN(C(=O)[C@@H](CCc1ccccc1)NC(=O)Cc1c[nH]c2ccccc12)c1ccccn1 |  | T107N |  | NL4-3 | 28 µM |
| COc1cccc(OC)c1C1SCC(=O)N1c1cccc(C)c1 | MT-4 |  |  | IIIB | 1.91 µM |
| Cc1cn([C@H]2C[C@H](F)[C@@H](CO)O2)c(=O)nc1N | MT-4 |  |  | IIIB | 2 µM |
| Nc1ncnc2c1ncn2C1CC(CO)C1 | ATH8 |  |  | IIIB | >100 µM |
| C=C1CC[C@@H]2[C@](C)(CO)[C@H](O)CC[C@@]2(C)[C@@H]1CCC1C(=O)NCC1O | C8166 |  |  |  | >569 µM |
| Cc1ccnc(N2C(=O)CSC2c2c(F)ccc(C)c2Cl)n1 | MT-4 |  |  | IIIB | 0.769 µM |
| CC1(CO)CCC(Cn2nnc3c(=O)[nH]c(N)nc32)C1(C)C | CEM |  |  |  | 26 µg/mL |
| C=C1CC[C@@H]2[C@](C)(CO)[C@H](O)CC[C@@]2(C)[C@@H]1CC(OC(=O)c1ccc([N+](=O)[O-])cc1)C1CCOC1=O | C8166 |  |  |  | 1.466 µM |
| Nc1nc2c(ncn2[C@H]2CO[C@@H](CO)C2)c(=O)[nH]1 | ATH8 |  |  | IIIB | 30 µM |
| CC(CC(F)(F)C(F)(F)C(F)(F)F)(C(=O)OCCOP(=O)([O-])O)C(F)(F)C(F)(F)C(F)(F)F.[NH3+]CCO | MT-4 |  |  |  | 4 µg/mL |
| C=C1CC[C@@H]2[C@](C)(CO)[C@H](O)CC[C@@]2(C)[C@@H]1C/C=C1/C(=O)OC[C@H]1O | C8166 |  |  |  | 2.322 µM |
| Nc1ncnc2c1ncn2[C@H]1C=C[C@@H](OCP(=O)(O)O)O1 | MT-2 | RT-M184V |  |  | 1.3 µM |
| CCO[C@H]1c2cc(O)c(OC)c(OC)c2-c2c(cc(O)c(OC)c2OC)C[C@H](C)[C@@H]1C | C8166 |  |  |  | 3.47 µg/mL |
| Nc1nc2c(ncn2[C@H]2CO[C@@H](CCP(=O)(O)O)O2)c(=O)[nH]1 | MT-4 |  |  |  | 6.8 µg/mL |
| Cc1nc(Cc2n[nH]c(=S)n2-c2ccccc2)nn1C | MT-4 |  |  | IIIB | >59.3 µg/mL |
| O=C(N(Cc1ccccc1)[C@@H](CO)Cc1ccccc1)N(Cc1ccccc1)[C@@H](CO)Cc1ccccc1 | CEM + CEM-SS |  |  | LAI | 0.08 µM |
| Nc1ncnc2c1ncn2[C@@H]1C[C@H](CO)[C@@H]1CO | MT-2 |  |  | IIIB | >200 µM |
| Cc1nc(CC(=O)NN)nn1C | MT-4 |  |  | IIIB | >102 µg/mL |
| CC1=CC(=C(c2ccc(N)c(S(=O)(=O)O)c2)c2ccc(N)c(S(=O)(=O)O)c2)C=C(S(=O)(=O)O)C1=N | MT-4 |  |  |  | 42 µM |
| OC[C@H]1C[C@@H](n2cnc3c(F)ncnc32)CO1 | ATH8 |  |  | IIIB | >100 µM |
| C=C1CC[C@@H]2[C@](C)(CO)[C@H](O)CC[C@@]2(C)[C@@H]1CC(OC(=O)/C=C/c1cc2c(cc1[N+](=O)[O-])OCO2)C1CCOC1=O | C8166 |  |  |  | 1.158 µM |
| OC[C@H]1C[C@@H](n2cnc3c(Cl)ncnc32)CO1 | ATH8 |  |  | IIIB | >100 µM |
| Cc1ccc(OCCOCn2cc(C)c(=O)[nH]c2=O)cc1 | CEM + CEM-SS |  |  |  | >100 µM |
| O=C(O)c1cccc(-c2ccc(/C=C3\SC(=S)N(Cc4ccco4)C3=O)o2)c1 | MT-2 |  |  | IIIB | 42.08 µM |
| C[C@H](CCCC(c1cc(Cl)c(O)c(C(=O)O)c1)c1cc(Cl)c(O)c(C(=O)O)c1)[C@H]1CC[C@H]2[C@@H]3CC[C@@H]4CC(F)(F)CC[C@]4(C)[C@H]3CC[C@]12C | CEM + CEM-SS |  |  | RF | 24 µM |
| COP(=O)(c1cc(C)cc(CCC#N)c1)c1c(C(N)=O)[nH]c2ccc(Cl)cc12 | MT-4 | K103N |  | BH10 | 0.0001 µM |
| CCc1nc(CC(=O)NN=C(C)C)nn1CC | MT-4 |  |  | IIIB | >117 µg/mL |
| CCc1c(C)[nH]c(=O)c([N+](=O)[O-])c1Sc1cc(C)cc(C)c1 | CEM + CEM-SS |  |  | LAI | 0.006 µM |
| Cc1cccc(N2C(=O)CSC2c2c(C(F)(F)F)ccc(Cl)c2F)n1 | MT-4 |  |  | IIIB | 3.02 µM |
| Cc1ccc(OCCOCn2c(C)c(C)c(=O)[nH]c2=O)cc1 | CEM + CEM-SS |  |  |  | 76.8 µM |
| CCn1nc(CC(=O)N/N=C/c2ccccc2)nc1C | MT-4 |  |  | IIIB | >104 µg/mL |
| CC1=C[C@@H]([C@H]2Oc3cc4c(c5c3[C@H](CC5)[C@@H]2C)CC[C@H]2C(C)(C)O[C@@H]3CC(=O)O[C@@]32C4)OC1=O | MT-4 |  |  | IIIB | ~30 µg/mL |
| C=C(C)C(=O)OCCOP(=O)(O)O | MT-4 |  |  |  | 1.6 µg/mL |
| COc1cccc(OC)c1C1SCC(=O)N1c1nccc(C)n1 | MT-4 |  |  | IIIB | 0.905 µM |
| O=C1C=CC(=C(c2ccc(O)cc2)c2ccc(O)cc2)C=C1 | HuT-78 |  |  |  | >2.3 µM |
| COc1ccccc1N1C(=O)S/C(=C\c2ccc(-c3cccc(C(=O)O)c3)o2)C1=O | MT-2 |  |  | IIIB | 1.138 µM |
| CC(C)CCC[C@@H](C)[C@H]1CC[C@H]2[C@@H]3CC[C@H]4CC(=C(c5cc(Cl)c(O)c(C(=O)O)c5)c5cc(Cl)c(O)c(C(=O)O)c5)CC[C@]4(C)[C@H]3CC[C@]12C | CEM + CEM-SS |  |  | RF | 83.3 µM |
| C=Cc1cn([C@H]2C[C@H](F)[C@@H](CO)O2)c(=O)[nH]c1=O | MT-4 |  |  | IIIB | 2.4 µM |
| O=S(=O)(O)c1cc(O)c2c(NS(=O)(=O)c3ccc(-c4ccc(S(=O)(=O)Nc5cc(S(=O)(=O)O)cc6cc(S(=O)(=O)O)cc(O)c56)cc4)cc3)cc(S(=O)(=O)O)cc2c1 | MT-4 |  |  | IIIB | 8.1 µg/mL |
| CCn1nc(CC(=O)NN=C(C)C)nc1C | MT-4 |  |  | IIIB | >95.1 µg/mL |
| COc1ccc([C@]2(OC)O[C@@H](c3cc(OC)c(OC)c(OC)c3)[C@@]3(C)O[C@@]23C)cc1OC | C8166 |  |  |  | 51.8 µg/mL |
| CC1(CO)CCC(Cn2nnc3c(Cl)nc(N)nc32)C1(C)C | CEM |  |  |  | >0.8 µg/mL |
| Nc1nc(=O)n([C@H]2O[C@@H](CO)C=C2F)cc1F | MT-2 |  | 3 d | IIIB | 3.6 µM |

The first 7 rows once more:

| smiles | cells | mutations | setting | strain | result |
|---|---|---|---|---|---|
| Cc1cn([C@H]2C[C@H](F)[C@@H](CO)O2)c(=O)[nH]c1=S | MT-4 |  |  | IIIB | 1 µM |
| Cc1ccc(NC(=O)NCCSCc2ccc(CNC(C)C)o2)cc1Cl | MAGI |  |  |  | <100 µM |
| Cc1c(C(=O)O)cccc1-c1ccc(/C=C2\SC(=S)N(c3cccc(C(F)(F)F)c3)C2=O)o1 | MT-2 |  |  | IIIB | 1.571 µM |
| Cc1ccnc(N2C(=O)CSC2c2c(F)cccc2F)n1 | MT-4 |  |  | IIIB | 0.39 µM |
| Cc1ccc2c(c1)c1ccc(C)cc1c1ccc(CCCCCN3C(=O)CCC3=O)cc21 | MT-4 |  |  | IIIB | 30 µM |
| COc1cc2c(c(OC)c1O)-c1c(cc3c(c1OC)OCO3)C[C@H](C)[C@H](C)[C@@H]2O | C8166 |  |  |  | 7.15 µg/mL |
| Cc1ccc(OCCOCn2c(C)cc(=O)[nH]c2=O)cc1 | CEM + CEM-SS |  |  |  | >100 µM |

Conditions beyond the fields shown may differ between rows. ECn is the concentration giving n% inhibition of infection, replication or growth.